One sequence from article PMC6002686 can be followed below.

Data set [1] relates to ArcA (non-phosphorylated) (Salmonella enterica serovar Enteritidis NCTC13349). As to the kind of experiment: EMSA. Conditions: non-phosphorylated, band-shift pattern differs from P-ArcA; recombinant protein; protein details: C-terminal 6xHis (pBAD-TOPO); label: none (GelRed stain); probe letters rebuilt from the primers and the genome.
For data set [2], the system named is P-ArcA (in vitro phosphorylated ArcA) (Salmonella enterica serovar Enteritidis NCTC13349). As to the kind of experiment: EMSA. The note with it: phosphorylated ArcA, dose-dependent, slowest complex at 0.9 and 1.2 ug; recombinant protein; protein details: C-terminal 6xHis (pBAD-TOPO); label: none (GelRed stain); probe letters rebuilt from the primers and the genome.

Construct, isoform or probe ends are uncertain for at least one entry.

“TCTAAGAAAACCTCATCCCGGGATTTTCAGGCAACCCTCCCGGTGATGCCAAAGAGAAAAGTGTAGTTCGTTGACAATAAATTTACATTTCTACAACTTAAAAGGGCCATTTTTGCTAAAGAAGCGAGTCAGCCCGTTTAACCTTTATCCAGGCTTGCCGACAGTAGAATTGAGATGGCTCCGCTACTTCACCCGGTGACGGCTGATTACGTTATGCCTTATCTCCTGATGACGGCTGCCAGATCACAATGCTTTGGTAAACCGGAAATGACTTTGCTTGTAACCTTCGCGAAGATAAAAACGGTGTGCATCGCGGCGTTTAATATTTGTGGAAAGCTCCGTTAGCTCGGCGCCCGCCTGACGTGCTTCTTCTTCTGCCCAGGCCAGAAGCTGACTGCCAATTTTTTGTCCCCGCATCGGCGGTAATACCACCAGCTCCTGAATTTCGCCAATCCAGTTGGCATGATGGAGATGAAACT (double strand) [complete lpxO promoter region, 480 bp]”: the binding result in data set [1] and in data set [2] was “binds” in each case.
